Measured values from several laboratories, pooled; numbers as filed in NIAID ChemDB.

All rows: tests in culture

Blank or dashed fields: not listed here.

smiles | endpoint | tested at | method | cell line | species | changes | strain or isolate | value
CCCCCCCCCCCCCCCCCCOCCCOP1(=O)CO[C@@H](Cn2ccc(N)nc2=O)CO1 | EC50 | - | plaque count | MRC-5 | Rat cytomegalovirus | - | - | 0.005 µM
CCC(CC)O[C@@H]1C=C(C(=O)O)C[C@H](N)[C@H]1NC(C)=O | EC50 | - | - | MDCK | Influenza A virus | - | H1N1 A/Beijing/262/95 | 2.4 µM
N#Cc1cnn(CCc2ccccc2)c1/N=c1\ssnc1Cl | MIC | - | - | - | Saccharomyces cerevisiae | - | ATCC26785 | 25 µg/mL
CCC(=O)C(CCCCCCc1ccc(O)cc1)C(=O)CC | EC50 | - | virus yield | - | Equine herpesvirus 4 | - | - | <100 µg/mL
Cc1cn([C@H]2OC[C@@H](CO)C2F)c(=O)[nH]c1=O | EC50 | - | cytopathic effect | VERO | Sindbis virus | - | - | >80 µg/mL
CCc1nc(N)nc(N)c1-c1ccc(Cl)cc1 | MIC | - | - | - | Mycobacterium avium complex | - | DW9 | 32 µg/mL
Nc1ncnc2c1ncn2[C@H]1OC[C@@H](CO)C1O | EC50 | - | cytopathic effect | VERO | Sindbis virus | - | - | >80 µg/mL
CN1CCc2c(sc(/N=c3\ssnc3Cl)c2C#N)C1 | MIC | - | - | - | Saccharomyces cerevisiae | - | ATCC26785 | 100 µg/mL
C/C=C/C/C=C/CCC(=O)[C@H]1O[C@H]1C(N)=O | MIC | - | - | - | Escherichia coli | - | UB1005/PEMR2.1 | 10 µg/mL
CCC(=O)C(CCCCCCOc1ccc(OC)cc1Cl)C(=O)CC | inhibition | 3 µg/mL | plaque count | MEF | Mouse cytomegalovirus | - | SMITH | 35%
C=C(C)C1COc2cc(OC)c3c(c2C1)OC(c1ccccc1)=CC3OC | inhibition | 6 µM | plaque count | LLC-MK2 | Dengue virus | - | Type 2/Mexican isolate | 25.8%
COc1c(N2CCNC(C)C2)c(F)cc2c(=O)c(C(=O)O)cn(C3CC3)c12 | MIC90 | - | - | - | Streptococcus pyogenes | - | 41 strains | 0.5 µg/mL
Nc1ncccc1-c1cc(Cc2ccc(COc3ccccn3)cc2)no1 | MIC50 | - | broth dilution | - | Candida spp. | - | Fluconazole-resistant | 0.016 µg/mL
O=c1cnn(COCCO)c(=O)[nH]1 | inhibition | 10 µg/mL | - | Primary duck hepatocytes | Duck hepatitis B virus | - | - | 35%
Nc1cnn([C@@H]2O[C@H](CO)[C@@H](O)[C@H]2O)c(=O)n1 | inhibition | 8 µg/mL | - | HEP-2 | Adenovirus | - | TYPE 5 | 100%
CCC(=O)C(CC/C=C/CCc1ccc(C)cc1)C(=O)CC | MIC | - | - | - | Equine herpesvirus 4 | - | - | >50 µg/mL
Nc1ncnc2c1ncn2C[C@@H](CO)OCP(=O)(O)O | MIC | - | - | - | Duck hepatitis B virus | - | - | 0.5 µg/mL
Nc1nc2c(ncn2COC2CCP(=O)([O-])OC2)c(=O)[nH]1 | EC50 | - | cytopathic effect | GPE | Guinea pig cytomegalovirus | - | 22122 | 8 µg/mL
O=C(N[C@@H](C(=O)N1CCC[C@H]1c1ncc(-c2ccc(-c3ccc(-c4cnc([C@@H]5CCCN5C(=O)[C@H](NC(=O)C5CC5)c5ccccc5)s4)cc3)cc2)s1)c1ccccc1)C1CC1 | fold resistance | - | luciferase / reporter gene | Huh7.5 | Hepatitis C virus | P58S | genotype 1b | 25
OC(CCn1ccnc1)c1cccc(C(O)c2ccc(Br)cc2)c1 | MIC | - | broth dilution | - | Candida guilliermondii | - | RTCC 1377 | 16 µg/mL
N#Cc1cnn(CCCc2ccccc2)c1/N=c1\ssnc1Cl | MIC | - | - | - | Saccharomyces cerevisiae | - | ATCC26785 | 25 µg/mL
O=C(CCn1ccnc1)c1ccc(Br)cc1 | MIC | - | broth dilution | - | Candida kefyr | - | RTCC 1074 | 8 µg/mL
CC(C)(C)n1ncc(C#N)c1/N=c1\ssnc1Cl | MIC | - | - | - | Saccharomyces cerevisiae | - | ATCC26785 | 25 µg/mL
O=C(CCn1ccnc1)c1cccc2ccccc12 | MIC | - | broth dilution | - | Candida kefyr | - | RTCC 1019 | >64 µg/mL
CCOC(=O)C(CC/C(=C/CCc1ccc2c(c1)OCO2)CC)C(=O)CC | MIC | - | - | - | Equine herpesvirus 4 | - | - | >50 µg/mL
Nc1nc2c(ncn2COC(CO)CO)c(=O)[nH]1 | EC50 | - | virus yield | MRC-5 | Human cytomegalovirus | - | AD169 | 0.3 µM
C/C(=C\C(=O)CCCCCCCCC(=O)O)C[C@@H]1OC[C@H](C[C@H]2O[C@H]2[C@@H](C)[C@H](C)O)[C@@H](O)[C@H]1O | MIC | - | - | - | Saccharomyces cerevisiae | - | - | >128 µg/mL
Nc1nc2c(ncn2CCC(CO)CO)c(=O)[nH]1 | inhibition | 5 µM | antigen | HUMAN CORD BLOOD CELLS | Human herpesvirus 7 | - | SB | 21%
Nc1nc2c(ncn2[C@H]2OC[C@@H](CO)C2O)c(=O)[nH]1 | EC50 | - | cytopathic effect | VERO | Sindbis virus | - | - | >16 µg/mL
N=C(N)c1ncn([C@@H]2O[C@H](CO)[C@@H](O)[C@H]2O)n1 | EC50 | - | - | - | West Nile virus | - | - | >100 µM
Cc1ccccc1Cn1nnc(C#N)c1/N=c1\ssnc1Cl | MIC | - | - | - | Saccharomyces cerevisiae | - | ATCC26785 | 25 µg/mL
OC[C@H]1O[C@@H](n2c(Br)nc3cc(Cl)c(Cl)cc32)[C@H](O)[C@@H]1O | EC50 | - | hybridisation | MRC-5 | Human cytomegalovirus | - | 1038RB (ASP344GLU AND ALA355VAL) | >20 µM
O=C(CCn1ccnc1)c1cccc(C(O)c2ccc(Br)cc2)c1 | MIC | - | broth dilution | - | Candida kefyr | - | RTCC 1074 | 64 µg/mL
Nc1ccn(C[C@@H](CO)OCP(=O)(O)O)c(=O)n1 | EC50 | - | plaque count | HFF | Guinea pig cytomegalovirus | - | - | 1.6 µM
CCC(C)n1ncn(-c2ccc(N3CCN(c4ccc(OC[C@H]5CO[C@](Cn6cncn6)(c6ccc(Cl)cc6Cl)O5)cc4)CC3)cc2)c1=O | MIC50 | - | broth dilution | - | Candida guilliermondii | - | - | 0.25 µg/mL
CC(C)=CCOc1cc(NC(=S)c2ccsc2C)ccc1Cl | fold resistance | - | p24 | CEM + CEM-SS | HIV-1 | RT-Y181C | 4XAZT+Y181C (RT D67N K70R Y181C T215Y K219Q) | 17
OC[C@H]1O[C@@H](n2c(Br)nc3cc(Cl)c(Cl)cc32)[C@H](O)[C@@H]1O | EC50 | - | plaque count | HFF | Rhesus cytomegalovirus | - | - | 0.4 µM
Nc1nc2c(ncn2COC(CO)CCP(=O)([O-])O)c(=O)[nH]1 | EC50 | - | cytopathic effect | GPE | Guinea pig cytomegalovirus | - | 22122 | 20 µg/mL
OC[C@H]1O[C@@H](n2c(Br)nc3cc(Cl)c(Cl)cc32)[C@H](O)[C@@H]1O | EC50 | - | - | - | Guinea pig cytomegalovirus | - | - | 4.7 µM

3 of the rows above, restated:

{"smiles": "OC[C@H]1O[C@@H](n2c(Br)nc3cc(Cl)c(Cl)cc32)[C@H](O)[C@@H]1O", "endpoint": "EC50", "species": "Guinea pig cytomegalovirus", "value": "4.7 µM"}
{"smiles": "O=C(CCn1ccnc1)c1cccc2ccccc12", "endpoint": "MIC", "method": "broth dilution", "species": "Candida kefyr", "strain or isolate": "RTCC 1019", "value": ">64 µg/mL"}
{"smiles": "Nc1nc2c(ncn2COC(CO)CCP(=O)([O-])O)c(=O)[nH]1", "endpoint": "EC50", "method": "cytopathic effect", "cell line": "GPE", "species": "Guinea pig cytomegalovirus", "strain or isolate": "22122", "value": "20 µg/mL"}

Conditions beyond the fields shown may differ between rows. ECn: concentration that inhibits the pathogen or its effect by n%. Inhibition is in % at the dose shown (toxicity tests: loss of growth or viability). Fold resistance has wild type as its base. A number after MIC or MFC names an inhibition level or a share of isolates.